Laboratory results: PubChem BioAssay AID624099 (ICCB-Longwood, 2012)

Screen: 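Knock-downs relieving repression by E2 of an HPV18 LCR luciferase reporter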 (primary screen)
System: human C33A cervical carcinoma cells (HPV-negative) stably expressing BPV1 E2 and an HPV18 LCR luciferase reporter
Reagent: siRNA pool against human genes, 40 nM
Duration: 72 h
Measurement: 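HPV18 LCR reporter light per well, converted to plate-wise z-scores that exclude control wells, and averaged over triplicate plates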
Direction: mean z-score and z-score: higher = stronger reporter signal, weaker E2 silencing
Hit rule: 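Mean z ≥ 2 together with z ≥ 2 in two or more of the three replicates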
In all, the deposit lists about 21,000 reagents; shown is an unselected part. In the full data, 497 (2.4%) were called active. 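Higher z means weaker E2 silencing; only reporter increases were scored, and knock-downs that hurt cell survival may mask genuine repressor factors.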 The numbers tell different reagents against one gene apart.

gene knocked down | reagent | mean z-score | z-score, replicate A | z-score, replicate B | z-score, replicate C | outcome
EMC1 | 1 | 0.16 | 0.21 | 0.16 | 0.11 | inactive
ADIRF | 1 | -0.26 | -0.18 | -0.18 | -0.42 | inactive
C8orf33 | 1 | 1.25 | 1.62 | 0.99 | 1.15 | inactive
CHST14 | 1 | 0.37 | 0.33 | 0.38 | 0.39 | inactive
CTRB1 | 1 | 1.42 | 1.15 | 1.5 | 1.61 | inactive
ACAD11 | 1 | -0.52 | -0.46 | -0.54 | -0.55 | inactive
IL17C | 1 | -0.15 | -0.04 | -0.14 | -0.27 | inactive
SHANK2 | 1 | 0.69 | 0.76 | 0.88 | 0.43 | inactive
OBP2B | 1 | -0.88 | -0.87 | -1.4 | -0.37 | inactive
TP53I3 | 1 | -0.36 | -0.21 | -0.42 | -0.46 | inactive
TRIM15 | 1 | -0.91 | -1.2 | -0.65 | -0.87 | inactive
TUBB2A | 1 | 0.52 | 0.48 | 0.49 | 0.6 | inactive
RHBDF1 | 1 | -0.3 | -0.41 | 0.03 | -0.52 | inactive
BRMS1 | 1 | -1.43 | -1.24 | -1.54 | -1.53 | inactive
GTF2E2 | 1 | 1.58 | 1.26 | 1.49 | 1.99 | inactive
GSG1L | 1 | 0.12 | -0.32 | 0.09 | 0.59 | inactive
SLC22A11 | 1 | -0.27 | -0.61 | -0.29 | 0.09 | inactive
FASTKD2 | 1 | -0.84 | -0.72 | -0.9 | -0.89 | inactive
LOC389230 (retired record) | 1 | 0.82 | 1.29 | 0.69 | 0.47 | inactive
LOC389403 (retired record) | 1 | 4.93 | 4.48 | 5.07 | 5.23 | active
LOC157273 | 1 | -0.28 | -0.51 | -0.15 | -0.17 | inactive
PEX11B | 1 | 0.68 | 0.72 | 0.57 | 0.74 | inactive
TBXT | 1 | 1.02 | 1.14 | 0.88 | 1.04 | inactive
VDAC2 | 1 | -0.75 | -0.72 | -0.75 | -0.77 | inactive
UBE2I | 1 | 0.23 | 0.19 | 0.54 | -0.05 | inactive
SNRPB | 1 | -0.9 | -0.89 | -0.83 | -0.98 | inactive
WDFY3 | 1 | 2.61 | 2.48 | 2.5 | 2.84 | active
FAM220A | 1 | -1.34 | -1.68 | -1 | -1.34 | inactive
OTOF | 1 | -0.21 | -0.37 | -0.32 | 0.05 | inactive
LOC401434 (retired record) | 1 | 0.06 | -0.08 | 0.09 | 0.17 | inactive
PLCB1 | 1 | 1.2 | 1.41 | 1.35 | 0.84 | inactive
LOC389907 (retired record) | 1 | -0.31 | -0.41 | -0.2 | -0.31 | inactive
SDC3 | 1 | -0.19 | -0.43 | -0.09 | -0.04 | inactive
RRH | 1 | 0.86 | 0.87 | 0.88 | 0.82 | inactive
NMS | 1 | -0.07 | 0.18 | -0.08 | -0.3 | inactive
KHDC3L | 1 | -0.41 | -0.65 | -0.38 | -0.21 | inactive
ZMYM3 | 1 | 0.5 | 0.64 | 0.59 | 0.27 | inactive
TUSC8 | 1 | 0 | 0.16 | -0.06 | -0.1 | inactive
MYDGF | 1 | 0.77 | 0.57 | 0.22 | 1.51 | inactive
SLC19A2 | 1 | 0.86 | 0.78 | 0.85 | 0.95 | inactive
PANX3 | 1 | -0.3 | -0.61 | -0.29 | 0 | inactive
LOC400796 (retired record) | 1 | -0.79 | -0.64 | -0.83 | -0.9 | inactive
ZNF285 | 1 | -0.18 | -0.41 | 0.02 | -0.15 | inactive
SP110 | 1 | -0.91 | -1.77 | 0.48 | -1.43 | inactive
RGS6 | 1 | 0.08 | 0.01 | 0.16 | 0.07 | inactive

Not a retest: 7 of the entries above.
gene knocked down | reagent | mean z-score | z-score, replicate A | z-score, replicate B | z-score, replicate C | outcome
FAM220A | 1 | -1.34 | -1.68 | -1 | -1.34 | inactive
OTOF | 1 | -0.21 | -0.37 | -0.32 | 0.05 | inactive
LOC401434 (retired record) | 1 | 0.06 | -0.08 | 0.09 | 0.17 | inactive
PLCB1 | 1 | 1.2 | 1.41 | 1.35 | 0.84 | inactive
LOC389907 (retired record) | 1 | -0.31 | -0.41 | -0.2 | -0.31 | inactive
SDC3 | 1 | -0.19 | -0.43 | -0.09 | -0.04 | inactive
RRH | 1 | 0.86 | 0.87 | 0.88 | 0.82 | inactive

The listing continues:
gene knocked down | reagent | mean z-score | z-score, replicate A | z-score, replicate B | z-score, replicate C | outcome
MC1R | 1 | -1.4 | -1.71 | -1.34 | -1.15 | inactive
KLHDC4 | 1 | -0.1 | 0.02 | -0.17 | -0.15 | inactive
PPP1R2B | 1 | -0.07 | -0.06 | -0.48 | 0.33 | inactive
ZNF829 | 1 | 0.94 | 0.48 | 1.18 | 1.15 | inactive
FEZ1 | 1 | -0.5 | -0.46 | -0.24 | -0.79 | inactive
ERAP1 | 1 | -0.26 | -0.2 | -0.12 | -0.46 | inactive
NUP210 | 1 | 0.27 | 0.32 | 0.3 | 0.2 | inactive
MRPS5 | 1 | -1 | -0.67 | -1.11 | -1.21 | inactive
SLC22A5 | 1 | -0.26 | -0.23 | -0.14 | -0.39 | inactive
CD302 | 1 | 1.39 | 1.44 | 1.34 | 1.38 | inactive
DDR2 | 1 | 0.1 | -0.13 | 0.28 | 0.17 | inactive
HLA-DQA2 | 1 | -1.54 | -1.47 | -1.54 | -1.6 | inactive
LIMK1 | 1 | 0.28 | 0.51 | 0.4 | -0.06 | inactive
TRIP12 | 1 | -0.63 | -0.36 | -0.79 | -0.73 | inactive
DAZ1 | 1 | 1.16 | 1.09 | 1.02 | 1.38 | inactive
LRP5 | 1 | -0.97 | -0.82 | -1.02 | -1.06 | inactive
GUCY1B2 | 1 | -1.17 | -0.75 | -1.54 | -1.23 | inactive
SLC10A5 | 1 | -0.34 | -0.05 | -0.42 | -0.54 | inactive
SMPD4 | 1 | -0.55 | -0.57 | -0.51 | -0.58 | inactive
RPL15P11 | 1 | -0.22 | -0.76 | 0.04 | 0.07 | inactive
RPL15P11 | 2 | -0.3 | -0.26 | -0.37 | -0.28 | inactive
MCUB | 1 | 0.22 | 0.28 | 0.46 | -0.08 | inactive
CD1E | 1 | 0.31 | 0.23 | 0.19 | 0.51 | inactive
ACYP1 | 1 | -0.6 | -0.48 | -0.78 | -0.55 | inactive
PDZD7 | 1 | 0.38 | 0.18 | 0.37 | 0.59 | inactive
SNAI3 | 1 | 0.14 | 0.18 | 0.07 | 0.17 | inactive
C2orf15 | 1 | 0.88 | 0.87 | 0.79 | 0.97 | inactive
RPN1 | 1 | 0.12 | -0.23 | 0.31 | 0.28 | inactive
